From patent publication US20110247088
The exact form of at least one protein or probe is not confirmed.

By UniProt entry, the sequences of proteins in these tests, tags left out. Where a name states a change or a piece, a line headed by the entry shows the natural chain unless it says otherwise.
UniProt P04483: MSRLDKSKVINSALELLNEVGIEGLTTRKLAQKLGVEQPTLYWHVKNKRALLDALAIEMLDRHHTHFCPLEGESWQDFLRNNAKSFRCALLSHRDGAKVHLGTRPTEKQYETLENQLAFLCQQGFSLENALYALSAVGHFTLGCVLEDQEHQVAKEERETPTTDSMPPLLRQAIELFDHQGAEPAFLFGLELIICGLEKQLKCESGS

Target: reverse tetracycline-dependent transactivator M2 (rtTA-M2, Tet-On Advanced) (UniProt P04483)
Test: activity in cells
Settings: HEK293, +/- doxycycline; functional readout; protein in cells

Activity on this sequence, active:
TTTACTCCCTATCAGTGATAGAGAACGTATGAAGAGTTTACTCCCTATCAGTGATAGAGAACGTATGCAGACTTTACTCCCTATCAGTGATAGAGAACGTATAAGGAGTTTACTCCCTATCAGTGATAGAGAACGTATGACCAGTTTACTCCCTATCAGTGATAGAGAACGTATCTACAGTTTACTCCCTATCAGTGATAGAGAACGTATATCCAGTTTACTCCCTATCAGTGATAGAGAACGTATAAGCTTCCATAATATAAAAGAGTGCTGATTTTTTGAGTAAACTTGCAACAGTCCTAACATTCTTCTCTCGTGTGTTTGTGTCTGTTCGCCATCCCGTCTCCGCTCGTCACTTATCCTTCACTTTTCAGAGGGTCCCCCCGCAGATCCCGGTCACCCTCAGGTCGG (double strand) [Ptet-T9]
TTTACTCCCTATCAGTGATAGAGAACGTATGAAGAGTTTACTCCCTATCAGTGATAGAGAACGTATGCAGACTTTACTCCCTATCAGTGATAGAGAACGTATAAGGAGTTTACTCCCTATCAGTGATAGAGAACGTATGACCAGTTTACTCCCTATCAGTGATAGAGAACGTATCTACAGTTTACTCCCTATCAGTGATAGAGAACGTATATCCAGTTTACTCCCTATCAGTGATAGAGAACGTATAAGCTTTGCTTATGTAAACCAGGGCGCCTATAAAAGAGTGCTGATTTTTTGAGTAAACTTCAATTCCACAACACTTTTGTCTTATACCAACTTTCCGTACCACTTCCTACCCTCGTAAA (double strand) [Ptet-T11]
TTTACTCCCTATCAGTGATAGAGAACGTATGAAGAGTTTACTCCCTATCAGTGATAGAGAACGTATGCAGACTTTACTCCCTATCAGTGATAGAGAACGTATAAGGAGTTTACTCCCTATCAGTGATAGAGAACGTATGACCAGTTTACTCCCTATCAGTGATAGAGAACGTATCTACAGTTTACTCCCTATCAGTGATAGAGAACGTATATCCAGTTTACTCCCTATCAGTGATAGAGAACGTATAAGCTTGCCTATGTTCTTTTGGAATCTATCCAAGTCTTATGTAAATGCTTATGTAAACCATAATATAAAAGAGTGCTGATTTTTTGAGTAAACTTGCAACAGTCCTAACATTCTTCTCTCGTGTGTTTGTGTCTGTTCGCCATCCCGTCTCCGCTCGTCACTTATCCTTCACTTTTCAGAGGGTCCCCCCGCAGATCCCGGTCACCCTCAGGTCGG (double strand) [Ptet-T8]
TTTACTCCCTATCAGTGATAGAGAACGTATGAAGAGTTTACTCCCTATCAGTGATAGAGAACGTATGCAGACTTTACTCCCTATCAGTGATAGAGAACGTATAAGGAGTTTACTCCCTATCAGTGATAGAGAACGTATGACCAGTTTACTCCCTATCAGTGATAGAGAACGTATCTACAGTTTACTCCCTATCAGTGATAGAGAACGTATATCCAGTTTACTCCCTATCAGTGATAGAGAACGTATAAGCTTCCAGGGCGCCTATAAAAGAGTGCTGATTTTTTGAGTAAACTTGCAACAGTCCTAACATTCTTCTCTCGTGTGTTTGTGTCTGTTCGCCATCCCGTCTCCGCTCGTCACTTATCCTTCACTTTTCAGAGGGTCCCCCCGCAGATCCCGGTCACCCTCAGGTCGG (double strand) [Ptet-T10]
